Assay results: patent US8137705B2 (priority 2005, dated 2012)

Tested on: E. coli O157:H7
Assay: E. coli O157:H7 counts in water with rumen content treated with chlorine
Settings: for E. coli O157:H7 (log10 cfu/ml) at min: 0 / E. coli O157:H7 (log10 cfu/ml) at min: 1 / E. coli O157:H7 (log10 cfu/ml) at min: 5 / E. coli O157:H7 (log10 cfu/ml) at min: 10 / E. coli O157:H7 (log10 cfu/ml) at min: 20: 5 ppm chlorine; for E. coli O157:H7 (log10 cfu/ml) at min: 0: 0 min; for E. coli O157:H7 (log10 cfu/ml) at min: 1: 1 min; for E. coli O157:H7 (log10 cfu/ml) at min: 5: 5 min; for E. coli O157:H7 (log10 cfu/ml) at min: 10: 10 min; for E. coli O157:H7 (log10 cfu/ml) at min: 20: 20 min
[1] = Water (control, no rumen content), 21° C.
[2] = water:rumen content 10:1, 21° C.
[3] = water:rumen content 25:1, 21° C.
[4] = water:rumen content 50:1, 21° C.
[5] = water:rumen content 100:1, 21° C.

## chlorine
5 ppm chlorine in water, no rumen content
  killing of 10^6-10^7 E. coli O157:H7/ml: undetectable levels
[1]
  E. coli O157:H7 (log10 cfu/ml) at min: 0: <1.7 log10 cfu/ml
  E. coli O157:H7 (log10 cfu/ml) at min: 1: <1.7 log10 cfu/ml
  E. coli O157:H7 (log10 cfu/ml) at min: 5: <1.7 log10 cfu/ml
  E. coli O157:H7 (log10 cfu/ml) at min: 10: <1.7 log10 cfu/ml
  E. coli O157:H7 (log10 cfu/ml) at min: 20: <1.7 log10 cfu/ml
[2]
  E. coli O157:H7 (log10 cfu/ml) at min: 0: 6.4 log10 cfu/ml
  E. coli O157:H7 (log10 cfu/ml) at min: 1: 6.4 log10 cfu/ml
  E. coli O157:H7 (log10 cfu/ml) at min: 5: 6.6 log10 cfu/ml
  E. coli O157:H7 (log10 cfu/ml) at min: 10: 6.7 log10 cfu/ml
  E. coli O157:H7 (log10 cfu/ml) at min: 20: 6.7 log10 cfu/ml
[3]
  E. coli O157:H7 (log10 cfu/ml) at min: 0: 6.4 log10 cfu/ml
  E. coli O157:H7 (log10 cfu/ml) at min: 1: 6.5 log10 cfu/ml
  E. coli O157:H7 (log10 cfu/ml) at min: 5: 6.6 log10 cfu/ml
  E. coli O157:H7 (log10 cfu/ml) at min: 10: 6.5 log10 cfu/ml
  E. coli O157:H7 (log10 cfu/ml) at min: 20: 6.5 log10 cfu/ml
[4]
  E. coli O157:H7 (log10 cfu/ml) at min: 0: 7.2 log10 cfu/ml
  E. coli O157:H7 (log10 cfu/ml) at min: 1: 7.0 log10 cfu/ml
  E. coli O157:H7 (log10 cfu/ml) at min: 5: 7.1 log10 cfu/ml
  E. coli O157:H7 (log10 cfu/ml) at min: 10: 7.0 log10 cfu/ml
  E. coli O157:H7 (log10 cfu/ml) at min: 20: 7.1 log10 cfu/ml
[5]
  E. coli O157:H7 (log10 cfu/ml) at min: 0: 5.6 log10 cfu/ml
  E. coli O157:H7 (log10 cfu/ml) at min: 1: 5.6 log10 cfu/ml
  E. coli O157:H7 (log10 cfu/ml) at min: 5: 5.6 log10 cfu/ml
  E. coli O157:H7 (log10 cfu/ml) at min: 10: 5.8 log10 cfu/ml
  E. coli O157:H7 (log10 cfu/ml) at min: 20: 5.6 log10 cfu/ml
Chlorine 5 ppm, rumen content at ratios of 50:1 and higher
  effect on killing E. coli O157:H7: minimal effect
